Test results reported in patent publication US20150299276A1, “α-conotoxin peptide, pharmaceutical composition and use thereof” (published 2015).

How the values were obtained:
[1] = target: human α6/α3β2β3 nAChR (human), P17787; assay: cell-based or functional assay
[2] = target: rat α7 nAChR (rat), Q05941; assay: cell-based or functional assay

GCCSHPACNVDHPEIC (modifications not checked) [α-conotoxin LvIA/LvD21] gave an IC50 (half-blocking dose) of ACh-gated current, Xenopus oocytes [1] of 5.34 µM and an IC50 (half-blocking dose) of ACh-gated current, Xenopus oocytes [2] of 3 µM.
